Compound potency records, mixed from different reports. Data source: NIAID ChemDB in PubChem.

Common to all: growth or infection tests; species: Mycobacterium tuberculosis

Blank or dashed fields: not listed here. MIC bound: limit read from a one-dose screen. MIC50, MIC90 and the like: level of inhibition, or share of isolates inhibited. Rows are shuffled and stem from different studies. ECn is the concentration giving n% inhibition of infection, replication or growth. "inactive" is the filed call at that dose; no cut-off is given. Percent inhibition refers to the dose given; in toxicity tests it is the harm to the cells.

| structure | strain | changes | cells | read by | endpoint | tested at | value |
|---|---|---|---|---|---|---|---|
| CO[C@H]1/C=C/O[C@@]2(C)Oc3c(C)c(O)c4c(O)c(c5c(c4c3C2=O)NC2(CCN(CC(C)C)CC2)N=5)=NC(=O)/C(C)=C\C=C\[C@H](C)[C@H](O)[C@@H](C)[C@@H](O)[C@@H](C)[C@H](OC(C)=O)[C@@H]1C | CSU21 |  |  |  | MIC |  | 8 µg/mL |
| CCCCCCCCO[C@H]1O[C@H](CO[C@@H]2[C@@H](OCCCCCCCC)O[C@H](CO)[C@H]2OC)[C@@H](O[C@@H]2O[C@H](O)[C@@H](OC)[C@@H]2O)[C@@H]1O | H37Rv |  |  |  | EC50 |  | >6.25 µg/mL |
| O=C(NNC(=S)Nc1ccc([N+](=O)[O-])cc1)c1sc2ccc(Cl)cc2c1Cl | H37Rv |  |  | BACTEC | inhibition | 6.25 µg/mL | 0% |
| CC(=O)CCCCCCCCCCCCCCc1ccccc1 |  |  |  |  | MIC |  | >128 µg/mL |
| O=C(O)c1cn(C2CC2)c2c(F)c(N3CCSCC3)c(F)cc2c1=O | CSU15 |  |  |  | MIC |  | 0.25 µg/mL |
| CO[C@H]1/C=C/O[C@@]2(C)Oc3c(C)c(O)c4c(O)c(c(/C=N/N5CCN(C)CC5)c(O)c4c3C2=O)NC(=O)/C(C)=C\C=C\[C@H](C)[C@H](O)[C@@H](C)[C@@H](O)[C@@H](C)[C@H](OC(C)=O)[C@@H]1C | H37Rv |  |  |  | MIC |  | 2.5 µg/mL |
| O=C(NNC(=S)Nc1ccccc1Cl)c1sc2ccc(Cl)cc2c1Cl | H37Rv |  |  | BACTEC | inhibition | 6.25 µg/mL | 0% |
| CCc1nc2ncc(Cl)cn2c1C(=O)NCc1ccc(N2CCN(S(=O)(=O)CC(C)C)C=N2)cc1 |  |  |  | GFP | EC50 |  | 0.012 µM |
| NC(=O)c1ccc(=O)n([C@@H]2O[C@H](CO)[C@@H](O)[C@H]2O)c1 | H37Rv |  |  | resazurin | MIC bound |  | >6.25 µg/mL |
| CCCCCCCCO[C@H]1O[C@H](CO[C@H]2O[C@H](CO)[C@@H](N=[N+]=[N-])[C@@H]2O)[C@@H](O)[C@@H]1O | H37Rv |  |  |  | inhibition | 6.25 µg/mL | 13% |
| C[C@@H]1CN(c2c(F)c(N)c3c(=O)c(C(=O)O)cn(C4CC4)c3c2F)C[C@H](C)N1 | CSU27 |  |  |  | MIC |  | ≤0.125 µg/mL |
| CCO/N=C1/C(=O)N(CCOCCOCCOCCN2C(=O)C(=O)c3cc(F)ccc32)c2ccc(C)cc21 | H37Rv |  |  | visual reading | MIC |  | 128 µg/mL |
| O=C(NC(Cc1ccc(O)cc1)C(=O)N=Nc1c(O)[nH]c2ccccc12)c1ccccc1 | H37Rv |  |  | BACTEC | MIC bound |  | >12.5 µg/mL |
| C=CCc1ccc(O)c(OC)c1 |  |  |  |  | MIC |  | >128 µg/mL |
| O=C(O)CN1CCCN(CC(=O)O)Cc2cccc(n2)CN(CC(=O)O)CCC1 | H37Rv |  |  | radiometric | EC50 |  | <7.5 µg/mL |
| O=c1n2ccccc2nc2nc3ccccc3n12 | H37Rv |  |  | resazurin | inhibition | 6.25 µg/mL | 52% |
| CO/N=C1/C(=O)N(CCOCCOCCOCCN2C(=O)C(=O)c3ccccc32)c2ccc(C)cc21 |  | MDR |  | visual reading | MIC |  | 256 µg/mL |
| NNC(=O)CC1=NNC(=O)C1 | H37Rv |  |  | BACTEC | MIC bound |  | >12.5 µg/mL |
| NC(=O)c1cnccn1 | H37Rv |  |  |  | MIC |  | 50 µg/mL |
| Cc1ccc2nc(N/N=C(/c3ccccc3)c3ccccn3)cc(C)c2c1 | H37Rv |  |  |  | MIC |  | 1.6 µg/mL |
| CC1CN(c2c(F)cc3c(=O)c(C(=O)O)cn(C4CC4)c3c2F)CC(C)N1 | CSU12 |  |  |  | MIC |  | ≤0.125 µg/mL |
| CC(=O)Oc1ccn2nc(C)c(Cc3c(C)nn4ccc(OC(C)=O)cc34)c2c1 | H37Rv |  |  | resazurin | inhibition | 6.25 µg/mL | 71% |
| COc1ccn2nc(C)c(C(=O)NCc3ccc(-c4ccc(OC(F)(F)F)cc4)cn3)c2c1 | H37Rv | Rifampicin-resistant |  | fluorescence | MIC |  | <0.002 µg/mL |
| Clc1cc(Cl)c2[nH]c3nc4ccccc4nc3c2c1 | H37Rv |  |  | resazurin | MIC bound |  | >6.25 µg/mL |
| Brc1cncnc1-c1ccco1 | H37Rv |  |  | broth dilution | MIC |  | 1.5 µg/mL |
| Nc1cc2c(cc1Br)[nH]c(=O)c1ccccc12 | H37Rv |  |  | BACTEC | MIC |  | 12.5 µg/mL |
| C=C[C@]1(C)C=C2[C@H](O)C[C@@H]3C(C)(CCC[C@@]3(C)CO)[C@H]2CC1 | ITM3533 |  |  |  | inhibition | 100 µg/mL | inactive |
| CN(C)CCCN1c2ccccc2Sc2ccc(Cl)cc21 | 23427 |  |  |  | MIC |  | 10 µg/mL |
| O=C(N/N=C/c1ccc([N+](=O)[O-])s1)c1ccncc1 | H37Rv |  | VERO |  | MIC |  | 0.138 µg/mL |
| CCC1=NN(c2ccc(CNC(=O)c3c(C(F)(F)F)nc4ccccn34)cc2F)CCN1S(=O)(=O)C(F)(F)F |  |  |  | GFP | EC50 |  | 0.0012 µM |
| O=C(NCC(=O)N1CCN(c2ccc(N3C[C@H](Cn4ccnn4)OC3=O)cc2F)CC1)C1=CC=C([N+](=O)[O-])C1 | H37Rv |  |  | broth dilution / visual reading | inhibition | 0.5 µM | 57% |
| C1CCC(OB2OB(OC3CCCCC3)OB(OC3CCCCC3)O2)CC1 | H37Rv |  |  | BACTEC | MIC |  | ≥128 µg/mL |
| COC(=O)CC1CCCC(CCCCCCCCCCc2ccccc2)O1 |  |  |  |  | MIC |  | >128 µg/mL |
| COc1cc(-c2cc(=O)c3c(O)cc(O[C@@H]4O[C@H](CO[C@@H]5O[C@@H](C)[C@H](O)[C@@H](O)[C@H]5O)[C@@H](O)[C@H](O)[C@H]4O)cc3o2)ccc1O | H37Rv |  |  | BACTEC | MIC |  | >100 µg/mL |
| CCCCCCCCO[C@H]1O[C@H](CO)[C@@H](O[C@H]2O[C@H](CO)[C@@H](N)[C@@H]2O)[C@@H]1O | H37Rv |  |  |  | inhibition | 6.25 µg/mL | 10% |
| COc1cc(/C=C/c2ccccc2)oc(=O)c1 |  |  |  |  | MIC |  | 32 µg/mL |
| Nc1nc(NCCCc2ccccc2)c([N+](=O)[O-])c(=O)[nH]1 | H37Rv |  |  | BACTEC | inhibition | 12.5 µg/mL | 9% |
| O=c1cc(-c2ccccc2)oc2cc(O)cc(O)c12 | H37Rv |  |  | BACTEC | MIC |  | >100 µg/mL |
| CCCCCCCCO[C@H]1O[C@H](CO[C@H]2O[C@H](CO)[C@@H](OC)[C@@H]2O)[C@@H](O)[C@@H]1O | H37Rv |  |  |  | inhibition | 6.25 µg/mL | 8% |
| COc1ccn2nc(C)c(C(=O)NCc3ccc(-c4ccc(OC(F)(F)F)cc4)c(OC)c3)c2c1 | H37Rv |  |  | fluorescence | MIC |  | <0.02 µg/mL |
| Cc1ccc(-c2nc3c(C)nc(-c4ccccc4)nc3n2Nc2ccccc2)cc1 | H37Rv |  |  | BACTEC | inhibition | 12.5 µg/mL | 0% |
| C[C@@H](O)[C@H]1C(=O)N2C(C(=O)O)=C(SCCN=CN)C[C@H]12 | H37Rv |  |  | resazurin | MBC |  | >64 µg/mL |
| COc1cc2c3c(c1)-c1c(ccc(OC)c1Oc1nnnn1-c1ccccc1)CC3N(C)CC2 | H37Rv |  |  | BACTEC | MIC bound |  | >12.5 µg/mL |
| COC1=NN(c2ccc(CNC(=O)c3c(C(F)F)nc4ccccn34)cc2)CCN1S(=O)(=O)C(F)(F)F |  |  |  | GFP | EC50 |  | 0.083 µM |
| CC(=O)Nc1ccc(/C=N/NC(N)=S)cc1 | 1620 |  |  |  | MIC |  | 0.3 µg/mL |
| CCO/N=C1/C(=O)N(CCOCCOCCOCCN2C(=O)C(=O)c3cc(F)ccc32)c2ccc(F)cc21 | H37Rv |  |  | visual reading | MIC |  | 62.5 µg/mL |
| CC1(C)S[C@@H]2[C@H](NC(=O)Cc3ccccc3)C(=O)N2[C@H]1C(=O)O | H37Rv |  |  | resazurin | MBC |  | 256 µg/mL |
| Cc1ccc(NC(=S)NNC(=O)c2sc3ccc(Cl)cc3c2Cl)cc1 | H37Rv |  |  | BACTEC | inhibition | 6.25 µg/mL | 22% |
| O=c1cc(-c2ccc(O)c(O)c2)oc2cc(O)cc(O)c12 | H37Rv |  |  | BACTEC | MIC |  | 25 µg/mL |
| CC(=O)CCCCCCCCCCCc1ccc2c(c1)OCO2 |  |  |  |  | MIC |  | 6.25 µg/mL |
| CCc1nc2ncc(F)cn2c1C(=O)NCc1ccc(N2CCN(S(=O)(=O)C(F)(F)F)C(OC)=N2)c(F)c1 |  |  |  | GFP | EC50 |  | 0.0045 µM |
| CC1(C)S[C@@H]2[C@H](NC(=O)[C@H](N)c3ccc(O)cc3)C(=O)N2[C@H]1C(=O)O | H37Rv |  |  | resazurin | MIC |  | 64 µg/mL |
| CO/N=C1/C(=O)N(CCOCCOCCOCCN2C(=O)C(=O)c3cc(F)ccc32)c2ccc(C)cc21 |  | MDR |  | visual reading | MIC |  | 128 µg/mL |
| C=CCNc1nc2c(s1)c1c(O)c3c(O)c(C)c4c(c32)C(=O)[C@@](C)(O/C=C/[C@H](OC)[C@@H](C)[C@@H](OC(C)=O)[C@H](C)[C@H](O)[C@H](C)[C@@H](O)[C@@H](C)/C=C/C=C(/C)C(=O)N1)O4 | H37Rv |  |  | BACTEC | MIC |  | 0.2 µg/mL |
| O=c1c(O)c(-c2ccc(O)c(O)c2)oc2cc(O)cc(O)c12 | H37Rv |  |  | BACTEC | MIC |  | 50 µg/mL |
| O=C1c2ccccc2-c2c3c(cc4ccnc1c24)OCO3 | H37Rv |  |  | BACTEC | MIC bound |  | ≤12.5 µg/mL |
| NNC(=O)c1ccncc1 | 10 strains (isoniazid- rifampin-susceptible) |  |  |  | MIC |  | 0.125 µg/mL |
| Clc1ccc2sc(-c3nnc(Nc4ccccc4Cl)s3)c(Cl)c2c1 | H37Rv |  |  | BACTEC | inhibition | 6.25 µg/mL | 0% |
| COc1ccccc1-n1c(C)nc2c1C(=O)c1ccccc1C2=O | H37Rv |  |  | resazurin | MIC bound |  | >6.25 µg/mL |
| Brc1cncnc1-c1cccs1 | MDR | Rifampicin- and isoniazid-resistant |  | broth dilution | MIC |  | 0.7 µg/mL |
| CO/N=C1/C(=O)N(CCOCCOCCOCCn2c(O)c(N=NC(N)=O)c3cc(F)ccc32)c2ccc(F)cc21 | H37Rv |  |  | visual reading | MIC |  | 16 µg/mL |
| O=C(N/N=C/c1ccc(O)cc1O)c1cccnc1 | H37Rv |  |  | BACTEC | MIC |  | ≥12.5 µg/mL |
| Cc1cccc(Nc2nnc(-c3sc4ccc(Cl)cc4c3Cl)s2)c1C | H37Rv |  |  | BACTEC | inhibition | 6.25 µg/mL | 0% |
| NC[C@H]1O[C@H](O[C@H]2[C@H](O)[C@@H](O[C@H]3O[C@H](CO)[C@@H](O)[C@H](N)[C@H]3O)[C@H](N)C[C@@H]2N)[C@H](O)[C@@H](O)[C@@H]1O | H37Rv |  |  |  | MIC |  | 5 µg/mL |
| CO/N=C1/C(=O)N(CCOCCOCCOCCn2c(O)c(N=O)c3cc(F)ccc32)c2ccc(F)cc21 |  | MDR |  | visual reading | MIC |  | 256 µg/mL |
| COC(=O)C(NC(=O)C(=O)NC(C(=O)OC)C(C)(C)S)C(C)(C)S | H37Rv |  |  |  | inhibition | 6.25 µg/mL | 4% |
| COc1cc(/C=C/C(=O)NCCc2ccc(O)cc2)ccc1O |  |  |  |  | MIC |  | 128 µg/mL |
| CO[C@H]1/C=C/O[C@@]2(C)Oc3c(C)c(O)c4c(=O)c(c5oc6cc(N7CCN(CC(C)C)CC7)cc(=O)c6nc5c4c3=C2O)NC(=O)/C(C)=C\C=C\[C@H](C)[C@H](O)[C@@H](C)[C@@H](O)[C@@H](C)[C@H](OC(C)=O)[C@@H]1C | Erdman |  |  |  | MBC |  | 0.008 µg/mL |
| O=c1cc(-c2ccccc2)c2cc(Cl)ccc2o1 |  | Isoniazid-resistant |  | resazurin | MIC90 |  | >100 µg/mL |
| CO/N=C(\C(=O)N[C@@H]1C(=O)N2C(C(=O)O)=C(COC(C)=O)CS[C@H]12)c1csc(N)n1 | H37Rv |  |  | resazurin | MIC |  | 2 µg/mL |
| CCNC(=O)OCCN1C(=O)C2C3CCC(O3)C2C1=O | H37Rv |  |  | BACTEC | inhibition | 12.5 µg/mL | 29% |
| Cc1ccc(Nc2nnc(-c3sc4ccc(Cl)cc4c3Cl)s2)cc1 | H37Rv |  |  | BACTEC | inhibition | 6.25 µg/mL | 0% |
| CCC(=O)Cc1nc2nnc(N)n2nc1CC(=O)CC | H37Rv |  |  | BACTEC | MIC bound |  | >12.5 µg/mL |
| CCc1nc2ccc(F)cn2c1C(=O)NCc1ccc(N2CCN(S(=O)(=O)C(F)(F)F)C(C3CC3)=N2)cc1 |  |  |  | GFP | EC50 |  | 0.011 µM |
| CO[C@H]1/C=C/O[C@@]2(C)Oc3c(C)c(O)c4c(O)c(c(/C=N/N5CCN(C)CC5)c(O)c4c3C2=O)NC(=O)/C(C)=C\C=C\[C@H](C)[C@H](O)[C@@H](C)[C@@H](O)[C@@H](C)[C@H](OC(C)=O)[C@@H]1C | H37Rv |  |  | fluorescence | MIC |  | <0.008 µg/mL |
| CC(=O)NC[C@H]1CN(c2ccc(N3CCOCC3)c(F)c2)C(=O)O1 | 35 strains |  |  |  | MIC |  | >16 µg/mL |
| COc1c(O)cc2oc(-c3ccccc3)cc(=O)c2c1O | H37Rv |  |  | BACTEC | MIC |  | >100 µg/mL |

A second listing of 4 rows from above:

COc1cc(/C=C/C(=O)NCCc2ccc(O)cc2)ccc1O ; endpoint: MIC ; value: 128 µg/mL
O=C(NNC(=S)Nc1ccccc1Cl)c1sc2ccc(Cl)cc2c1Cl ; strain: H37Rv ; read by: BACTEC ; endpoint: inhibition ; tested at: 6.25 µg/mL ; value: 0%
NNC(=O)c1ccncc1 ; strain: 10 strains (isoniazid- rifampin-susceptible) ; endpoint: MIC ; value: 0.125 µg/mL
CN(C)CCCN1c2ccccc2Sc2ccc(Cl)cc21 ; strain: 23427 ; endpoint: MIC ; value: 10 µg/mL